{
  "source": "paper PMC9569420",
  "about": "(Communications Biology, 2022)",
  "key": {"VSV-S [1]": {"test_system": "VSV-S", "assay_type": "cell-based, VSV pseudotyped with SARS-CoV-2 spike"}, "RSK3": {"molecular_target": "T1, RSK3 (Homo sapiens, UniProt Q15349)", "T1 construct": "purchased Reaction Biology Corporation", "experiment": "HotSpot kinase assay", "assay_type": "biochemical", "conditions": "10µM"}, "PLK2": {"molecular_target": "T2, PLK2 (Homo sapiens, UniProt Q9NYY3)", "T2 construct": "purchased Reaction Biology Corporation", "experiment": "HotSpot kinase assay", "assay_type": "biochemical", "conditions": "10µM"}, "P38b/MAPK11": {"molecular_target": "T3, P38b/MAPK11 (Homo sapiens, UniProt Q15759)", "T3 construct": "purchased Reaction Biology Corporation", "experiment": "HotSpot kinase assay", "assay_type": "biochemical", "conditions": "10µM"}, "ULK3": {"molecular_target": "T4, ULK3 (Homo sapiens, UniProt Q6PHR2)", "T4 construct": "purchased Reaction Biology Corporation", "experiment": "HotSpot kinase assay", "assay_type": "biochemical", "conditions": "10µM"}, "ULK1": {"molecular_target": "T5, ULK1 (Homo sapiens, UniProt O75385)", "T5 construct": "purchased Reaction Biology Corporation", "assay_type": "biochemical", "conditions": "10µM"}, "OSR1/OXSR1": {"molecular_target": "T6, OSR1/OXSR1 (Homo sapiens, UniProt O95747)", "T6 construct": "purchased Reaction Biology Corporation", "experiment": "HotSpot kinase assay", "assay_type": "biochemical", "conditions": "10µM"}, "PKA": {"molecular_target": "T7, PKA (Homo sapiens, UniProt P17612)", "T7 construct": "purchased Reaction Biology Corporation", "experiment": "HotSpot kinase assay", "assay_type": "biochemical"}, "DYRK2": {"molecular_target": "T8, DYRK2 (Homo sapiens, UniProt Q92630)", "T8 construct": "purchased Reaction Biology Corporation", "experiment": "HotSpot kinase assay", "assay_type": "biochemical", "conditions": "10µM"}, "P38g": {"molecular_target": "T9, P38g (Homo sapiens, UniProt P53778)", "T9 construct": "purchased Reaction Biology Corporation", "experiment": "HotSpot kinase assay", "assay_type": "biochemical", "conditions": "10µM"}, "ASK1/MAP3K5": {"molecular_target": "T10, ASK1/MAP3K5 (Homo sapiens, UniProt Q99683)", "T10 construct": "purchased Reaction Biology Corporation", "experiment": "HotSpot kinase assay", "assay_type": "biochemical", "conditions": "10µM"}, "ACK1": {"molecular_target": "T11, ACK1 (Homo sapiens, UniProt Q07912)", "T11 construct": "purchased Reaction Biology Corporation", "experiment": "HotSpot kinase assay", "assay_type": "biochemical", "conditions": "10µM"}, "TBK1": {"molecular_target": "T12, TBK1 (Homo sapiens, UniProt Q9UHD2)", "T12 construct": "purchased Reaction Biology Corporation", "experiment": "HotSpot kinase assay", "assay_type": "biochemical", "conditions": "10µM"}, "TLK2": {"molecular_target": "T13, TLK2 (Homo sapiens, UniProt Q86UE8)", "T13 construct": "purchased Reaction Biology Corporation", "experiment": "HotSpot kinase assay", "assay_type": "biochemical", "conditions": "10µM"}, "AKT1": {"molecular_target": "T14, AKT1 (Homo sapiens, UniProt P31749)", "T14 construct": "purchased Reaction Biology Corporation", "assay_type": "biochemical"}, "FLT3": {"molecular_target": "T15, FLT3 (Homo sapiens, UniProt P36888)", "T15 construct": "purchased Reaction Biology Corporation", "experiment": "HotSpot kinase assay", "assay_type": "biochemical", "conditions": "10µM"}, "FES/FPS": {"molecular_target": "T16, FES/FPS (Homo sapiens, UniProt P07332)", "T16 construct": "purchased Reaction Biology Corporation", "experiment": "HotSpot kinase assay", "assay_type": "biochemical", "conditions": "10µM"}, "CDK1/cyclin B": {"molecular_target": "T17, CDK1/cyclin B (Homo sapiens, UniProt P06493)", "T17 construct": "purchased Reaction Biology Corporation", "experiment": "HotSpot kinase assay", "assay_type": "biochemical", "conditions": "10µM"}, "MEKK1": {"molecular_target": "T18, MEKK1 (Homo sapiens, UniProt Q13233)", "T18 construct": "purchased Reaction Biology Corporation", "experiment": "HotSpot kinase assay", "assay_type": "biochemical", "conditions": "10µM"}, "GRK3": {"molecular_target": "T19, GRK3 (Homo sapiens, UniProt P35626)", "T19 construct": "purchased Reaction Biology Corporation", "experiment": "HotSpot kinase assay", "assay_type": "biochemical", "conditions": "10µM"}, "DMPK": {"molecular_target": "T20, DMPK (Homo sapiens, UniProt Q09013)", "T20 construct": "purchased Reaction Biology Corporation", "experiment": "HotSpot kinase assay", "assay_type": "biochemical", "conditions": "10µM"}, "CDK9/cyclin T2": {"molecular_target": "T21, CDK9/cyclin T2 (Homo sapiens, UniProt P50750)", "T21 construct": "purchased Reaction Biology Corporation", "experiment": "HotSpot kinase assay", "assay_type": "biochemical", "conditions": "10µM"}, "CDK8/cyclin C": {"molecular_target": "T22, CDK8/cyclin C (Homo sapiens, UniProt P49336)", "T22 construct": "purchased Reaction Biology Corporation", "experiment": "HotSpot kinase assay", "assay_type": "biochemical", "conditions": "10µM"}, "DYRK3": {"molecular_target": "T23, DYRK3 (Homo sapiens, UniProt O43781)", "T23 construct": "purchased Reaction Biology Corporation", "experiment": "HotSpot kinase assay", "assay_type": "biochemical", "conditions": "10µM"}, "PLK3": {"molecular_target": "T24, PLK3 (Homo sapiens, UniProt Q9H4B4)", "T24 construct": "purchased Reaction Biology Corporation", "experiment": "HotSpot kinase assay", "assay_type": "biochemical", "conditions": "10µM"}, "TYK1/LTK": {"molecular_target": "T25, TYK1/LTK (Homo sapiens, UniProt P29376)", "T25 construct": "purchased Reaction Biology Corporation", "experiment": "HotSpot kinase assay", "assay_type": "biochemical", "conditions": "10µM"}, "CAMK2a": {"molecular_target": "T26, CAMK2a (Homo sapiens, UniProt Q9UQM7)", "T26 construct": "purchased Reaction Biology Corporation", "experiment": "HotSpot kinase assay", "assay_type": "biochemical", "conditions": "10µM"}, "GRK5": {"molecular_target": "T27, GRK5 (Homo sapiens, UniProt P34947)", "T27 construct": "purchased Reaction Biology Corporation", "experiment": "HotSpot kinase assay", "assay_type": "biochemical", "conditions": "10µM"}, "VSV-S [2]": {"test_system": "VSV-S", "assay_type": "cell-based, VSV pseudotyped with SARS-CoV-2 spike", "remark": "listed apart in the source"}, "RSK4": {"molecular_target": "T28, RSK4 (Homo sapiens, UniProt Q9UK32)", "T28 construct": "purchased Reaction Biology Corporation", "experiment": "HotSpot kinase assay", "assay_type": "biochemical", "conditions": "10µM"}, "SARS-CoV-2 (WA1/2020)": {"test_system": "SARS-CoV-2 (WA1/2020)", "experiment": "SARS-CoV-2 infection of Huh-7.5 cells (nucleocapsid staining)", "conditions": "24h, 1.5625 uM"}},
  "note": "Where “and” joins values, the source holds several entries; their conditions need not be identical. Equal entries are not always repeated. Where two headings read alike, the source gives them in different places.",
  "data": [
    {"smiles": "CO[C@@H]1[C@H](N(C)C(=O)CCC(=O)NCc2cn(CCCS(=O)(=O)O)nn2)C[C@H]2O[C@]1(C)n1c3ccccc3c3c4c(c5c6ccccc6n2c5c31)C(=O)NC4", "note": "[CIMSS]", "values": [
      {"measurement": "VSV-S plaques relative to DMSO control", "setting": "VSV-S [1]", "result": "79.7 and 84 and 70.9 and 80.4"},
      {"measurement": "VSV-S plaques relative to DMSO control", "setting": "VSV-S [1]; conc 1", "result": "77.65 and 67.02 and 67.4 and 81.1"},
      {"measurement": "VSV-S plaques relative to DMSO control", "setting": "VSV-S [1]; conc 10", "result": "61.7 and 52.1 and 52.57 and 56"},
      {"measurement": "VSV-S plaques relative to DMSO control", "setting": "VSV-S [1]; conc 50", "result": "41.48 and 42.55 and 42.2 and 40"},
      {"measurement": "VSV-S plaques relative to DMSO control", "setting": "VSV-S [1]; conc 100", "result": "12.76 and 15.95 and 8 and 9.1"},
      {"measurement": "% Enzyme Activity (relative to DMSO controls)", "setting": "RSK3", "result": 3.24, "unit": "%"},
      {"measurement": "% Enzyme Activity (relative to DMSO controls)", "setting": "PLK2", "result": 26.59, "unit": "%"},
      {"measurement": "% Enzyme Activity (relative to DMSO controls)", "setting": "P38b/MAPK11", "result": 83.74, "unit": "%"},
      {"measurement": "% Enzyme Activity (relative to DMSO controls)", "setting": "ULK3", "result": 11.94, "unit": "%"},
      {"measurement": "% Enzyme Activity (relative to DMSO controls)", "setting": "ULK1", "result": 13.46, "unit": "%"},
      {"measurement": "% Enzyme Activity (relative to DMSO controls)", "setting": "OSR1/OXSR1", "result": 53.02, "unit": "%"},
      {"measurement": "fold less effective than staurosporine (IC50)", "setting": "PKA", "result": "~ 46 fold"},
      {"measurement": "% Enzyme Activity (relative to DMSO controls)", "setting": "DYRK2", "result": 8.90, "unit": "%"},
      {"measurement": "% Enzyme Activity (relative to DMSO controls)", "setting": "P38g", "result": 29.80, "unit": "%"},
      {"measurement": "% Enzyme Activity (relative to DMSO controls)", "setting": "ASK1/MAP3K5", "result": 6.05, "unit": "%"},
      {"measurement": "% Enzyme Activity (relative to DMSO controls)", "setting": "ACK1", "result": 5.60, "unit": "%"},
      {"measurement": "% Enzyme Activity (relative to DMSO controls)", "setting": "TBK1", "result": 1.90, "unit": "%"},
      {"measurement": "% Enzyme Activity (relative to DMSO controls)", "setting": "TLK2", "result": 66.39, "unit": "%"},
      {"measurement": "fold less effective than staurosporine (IC50)", "setting": "AKT1", "result": "~ 230 fold"},
      {"measurement": "% Enzyme Activity (relative to DMSO controls)", "setting": "FLT3", "result": 4.52, "unit": "%"},
      {"measurement": "% Enzyme Activity (relative to DMSO controls)", "setting": "FES/FPS", "result": 2.56, "unit": "%"},
      {"measurement": "% Enzyme Activity (relative to DMSO controls)", "setting": "CDK1/cyclin B", "result": 13.39, "unit": "%"},
      {"measurement": "% Enzyme Activity (relative to DMSO controls)", "setting": "MEKK1", "result": 65.72, "unit": "%"},
      {"measurement": "% Enzyme Activity (relative to DMSO controls)", "setting": "GRK3", "result": 46.87, "unit": "%"},
      {"measurement": "% Enzyme Activity (relative to DMSO controls)", "setting": "DMPK", "result": 73.32, "unit": "%"},
      {"measurement": "% Enzyme Activity (relative to DMSO controls)", "setting": "CDK9/cyclin T2", "result": 8.32, "unit": "%"},
      {"measurement": "% Enzyme Activity (relative to DMSO controls)", "setting": "CDK8/cyclin C", "result": 10.03, "unit": "%"},
      {"measurement": "% Enzyme Activity (relative to DMSO controls)", "setting": "DYRK3", "result": 27.70, "unit": "%"},
      {"measurement": "% Enzyme Activity (relative to DMSO controls)", "setting": "PLK3", "result": 93.76, "unit": "%"},
      {"measurement": "% Enzyme Activity (relative to DMSO controls)", "setting": "TYK1/LTK", "result": 6.71, "unit": "%"},
      {"measurement": "% Enzyme Activity (relative to DMSO controls)", "setting": "CAMK2a", "result": 1.34, "unit": "%"},
      {"measurement": "% Enzyme Activity (relative to DMSO controls)", "setting": "GRK5", "result": 7.04, "unit": "%"},
      {"measurement": "VSV-S plaques relative to DMSO control", "setting": "VSV-S [2]", "result": "69 and 76.6 and 68.08 and 66.7"},
      {"measurement": "% Enzyme Activity (relative to DMSO controls)", "setting": "RSK4", "result": 6.54, "unit": "%"},
      {"measurement": "infection (SARS-CoV-2 positive cells relative to the DMSO control)", "setting": "SARS-CoV-2 (WA1/2020)", "result": "94.43% and 80.34% and 112.8366%"}
    ]}
  ]
}
